# Reference: PubChem BioAssay AID540276 (National Center for Advancing Translational Sciences (NCATS), 2011)
# This is a selection; strong and weak results do not stand in their true shares. Records with an inconclusive call do not appear. Activity calls are given as the source filed them. The call rests on the fitted dose curve; tested in HEK293 cells.
# Test: qHTS for inhibitors of binding or entry into cells for Marburg Virus
# Settings: Marburg virus pseudotyped entry inhibition, cell reporter
# Potency means the concentration at half of the fitted maximal effect.
row,SMILES,Potency
1,N#C/C(=C\c1ccc(N(CCBr)CCBr)cc1)C(N)=O,active: 4.47 µM
2,CN(C(=O)Cc1ccc(Cl)c(Cl)c1)[C@@H]1CC[C@]2(CCCO2)C[C@H]1N1CCCC1,active: 14.1 µM
